Source: PMC5352318, “Carcinoma-risk variant of EBNA1 deregulates Epstein-Barr Virus episomal latency”

Biological target: T1, B95-8 EBNA1 DBD (Epstein-Barr virus (strain B95-8)) (UniProt P03211)
T1 sequence (looked up): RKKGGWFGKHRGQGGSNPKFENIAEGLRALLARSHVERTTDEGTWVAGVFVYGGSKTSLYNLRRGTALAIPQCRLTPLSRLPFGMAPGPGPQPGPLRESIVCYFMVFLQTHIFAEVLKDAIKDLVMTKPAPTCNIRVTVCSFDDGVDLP
Assay: X-ray crystal structure
Details: DNA sequence in Methods is given for the NPC crystal only; Crystals: 0.2 M ammonium acetate, 0.15 M Mg acetate, 0.05 M Hepes pH 7.0, 5% PEG 4000; recombinant protein; residues 459-607; protein details: His6-SUMO tag, cleaved

## GGATAGCCTATGCTACCC (double strand) [single EBNA1 dimer site (crystal)]
  binding result: binds

The exact form of at least one protein or probe is not confirmed. At least one verdict was read from the data and is not stated in words by the source. Tags and fusion partners may be left off the protein sequences shown.
